According to patent US7803769B2 (priority 2006, dated 2010):

Experiment: peptide synthesis
Settings: conjugation step, analytical RP-HPLC, several disulfide bridges, sequence written open

With N-Terminally PEGylated-Des-Arg1-ShK the “crude HPLC purity” value was “approximately 58%” and the “final HPLC purity” value was 85%.
